From ChEMBL document CHEMBL5113391, “Halogen substituents enhance oxime nucleophilicity for reactivation of cholinesterases inhibited by nerve agents” (2022)

Key:
[1] = system: Mus musculus; test: Neuroprotective activity against sarin-induced CD-1 mouse assessed as protective agent at 100 mg/kg, IM after 24 hrs
[2] = system: Mus musculus; test: Neuroprotective activity against cyclosarin-induced CD-1 mouse assessed as protective agent at 100 mg/kg, IM after 24 hrs

## NC(=O)c1cc[n+](CCC[n+]2cc(Cl)c(/C=N/O)c(Cl)c2)cc1.[Br-].[Br-]
[1]
  Activity index: 4
[2]
  Activity index: 8
